Measurements reported in PubChem BioAssay AID1259414 (Drosophila RNAi Screening Center, 2018)

- Aim: 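Host factors increasing or decreasing Wolbachia levels in cultured fly cells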 (primary screen)
- Cells: Drosophila JW18 cells infected with Wolbachia
- Knock-down reagent: long dsRNA against Drosophila genes, 0.25 µg dsRNA per well of a 384-well plate
- Time to read-out: 5 days
- Challenge: cells persistently infected with Wolbachia before knock-down; no added drug
- Measured: 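Imaged fluorescence in situ signal for Wolbachia 23S rRNA per DAPI-counted host cell, given as a robust z-score within each plate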
- Scale: Wolbachia per cell robust z: higher = more Wolbachia per host cell than the plate typical
- Rule for the call: 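Active if absolute robust z reaches 1.5 in two or more of three replicates, leaving out multi- or no-target dsRNAs, genes unexpressed in JW18 and A1 wells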
The deposit covers about 24,000 reagents; this is an unselected part of those that have a named target and a result. In the full data, about 1,210 (5%) got an active call. 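Inactive calls also include excluded dsRNAs with several or no targets, genes unexpressed in JW18, and well A1, regardless of score.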 Unmarked entries are inactive. Names joined by + are all predicted targets of the reagent.

Silencing of LS2 [DRSC04340] resulted in: Wolbachia per cell robust z, rep 1 = -1.23; Wolbachia per cell robust z, rep 2 = -0.0828; Wolbachia per cell robust z, rep 3 = -0.562.
CG13481 [DRSC10023] scored Wolbachia per cell robust z, rep 1 = 1.07; Wolbachia per cell robust z, rep 2 = -0.283; Wolbachia per cell robust z, rep 3 = 0.183.
CG13481 [DRSC29353] showed Wolbachia per cell robust z, rep 1 = 0.912; Wolbachia per cell robust z, rep 2 = 0.384; Wolbachia per cell robust z, rep 3 = -0.0223.
Knock-down of strat [DRSC03069] came out at: Wolbachia per cell robust z, rep 1 = 0.116; Wolbachia per cell robust z, rep 2 = -7.42; Wolbachia per cell robust z, rep 3 = -0.927.
Against CG12935 + Nop10 [DRSC07025], the values are Wolbachia per cell robust z, rep 1 = -0.407; Wolbachia per cell robust z, rep 2 = -5.2; Wolbachia per cell robust z, rep 3 = 0.81.
For dsb [DRSC08542], the entry reads Wolbachia per cell robust z, rep 1 = -0.755; Wolbachia per cell robust z, rep 2 = -0.051; Wolbachia per cell robust z, rep 3 = 0.843.
CG33490 [DRSC10587] showed Wolbachia per cell robust z, rep 1 = 0.857; Wolbachia per cell robust z, rep 2 = 0.531; Wolbachia per cell robust z, rep 3 = 0.214.
CG9300 [DRSC11064] showed Wolbachia per cell robust z, rep 1 = 0.794; Wolbachia per cell robust z, rep 2 = 0.0933; Wolbachia per cell robust z, rep 3 = 0.529.

Copied from the list.
Under “Wolbachia per cell robust z, rep 2”, CG33490 [DRSC10587] has 0.531
Result for CG9300 [DRSC11064] in “Wolbachia per cell robust z, rep 1”: 0.794
Result for CG13481 [DRSC10023] in “Wolbachia per cell robust z, rep 2”: -0.283

Next entries follow:
With knock-down of CG16741 [DRSC06622], the record shows Wolbachia per cell robust z, rep 1 = -0.359; Wolbachia per cell robust z, rep 2 = -0.92; Wolbachia per cell robust z, rep 3 = -0.00806.
For CG16741 [DRSC24117] the deposit lists Wolbachia per cell robust z, rep 1 = -2.2; Wolbachia per cell robust z, rep 2 = -1.28; Wolbachia per cell robust z, rep 3 = -2.77.
Knock-down of Iru [DRSC14457] resulted in: Wolbachia per cell robust z, rep 1 = 1.17; Wolbachia per cell robust z, rep 2 = 0.0227; Wolbachia per cell robust z, rep 3 = 1.13.
With knock-down of Antp [DRSC23104] the results were Wolbachia per cell robust z, rep 1 = 0.753; Wolbachia per cell robust z, rep 2 = -0.209; Wolbachia per cell robust z, rep 3 = 0.151.
Silencing of Antp [DRSC26749] came out at: Wolbachia per cell robust z, rep 1 = 0.673; Wolbachia per cell robust z, rep 2 = -0.254; Wolbachia per cell robust z, rep 3 = 0.664.
With knock-down of CG3009 [DRSC18263], the record shows Wolbachia per cell robust z, rep 1 = -0.0828; Wolbachia per cell robust z, rep 2 = -0.996; Wolbachia per cell robust z, rep 3 = 0.104.
Against CG3009 [DRSC28666], the entry reads Wolbachia per cell robust z, rep 1 = 0.487; Wolbachia per cell robust z, rep 2 = -1.56; Wolbachia per cell robust z, rep 3 = 0.24.
Against CG17580 [DRSC06683] the deposit lists Wolbachia per cell robust z, rep 1 = -3.31; Wolbachia per cell robust z, rep 2 = 0.745; Wolbachia per cell robust z, rep 3 = -1.78.
CG17580 [DRSC27009] gave Wolbachia per cell robust z, rep 1 = -0.747; Wolbachia per cell robust z, rep 2 = 0.186; Wolbachia per cell robust z, rep 3 = -1.18.
For CG34288 [DRSC40625], the entry reads Wolbachia per cell robust z, rep 1 = -0.644; Wolbachia per cell robust z, rep 2 = -0.839; Wolbachia per cell robust z, rep 3 = 0.502.
With knock-down of unc [DRSC20511], the record shows Wolbachia per cell robust z, rep 1 = -1.26; Wolbachia per cell robust z, rep 2 = -1.68; Wolbachia per cell robust z, rep 3 = -1.21.
unc [DRSC27962] showed Wolbachia per cell robust z, rep 1 = 0.657; Wolbachia per cell robust z, rep 2 = 0.244; Wolbachia per cell robust z, rep 3 = -0.387.
phtm [DRSC20237] gave Wolbachia per cell robust z, rep 1 = 0.452; Wolbachia per cell robust z, rep 2 = -0.817; Wolbachia per cell robust z, rep 3 = 0.309.
For phtm [DRSC26997], the entry reads Wolbachia per cell robust z, rep 1 = 0.387; Wolbachia per cell robust z, rep 2 = -0.332; Wolbachia per cell robust z, rep 3 = -0.614.
For Hmg-2 [DRSC04554], the entry reads Wolbachia per cell robust z, rep 1 = 0.105; Wolbachia per cell robust z, rep 2 = 1.04; Wolbachia per cell robust z, rep 3 = 0.204.
Hmg-2 [DRSC25355] scored Wolbachia per cell robust z, rep 1 = -0.457; Wolbachia per cell robust z, rep 2 = 0.152; Wolbachia per cell robust z, rep 3 = 1.46.
